System: Caco-2/HT-29MTX monolayers

aflatoxin B1 [AFB1]
FA (calculated human fraction absorbed): 98.8%

From article PMC11126104 (Toxins, 2024)
